Laboratory results reported in patent publication US20080305111A1, “Anti-C35 antibodies for treating cancer” (VACCINEX, INC., priority 2006, published 2008).

Test system: H16N2 cells
Assay: Cell proliferation assay (alamar blue), H16N2
Assay type: cell-based, human
Conditions: antibodies at 150 μg/ml, day 6 of in vitro culture

Q: For “Herceptin: anti-Her2/neu antibody, positive antibody control for Her2-positive tumor cell lines”, which proliferation is on record?
A: but not of H16N2
